# PubChem BioAssay AID1259414 | Drosophila RNAi Screening Center | 2018
# Screen: 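Genome-wide screen for host control of endosymbiont load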 (primary screen)
# Cell system: Drosophila JW18 cells infected with Wolbachia
# Knock-down reagent: long dsRNA against Drosophila genes, 0.25 µg dsRNA per well of a 384-well plate
# Timing: 5 days
# Treatment: cells persistently infected with Wolbachia before knock-down; no added drug
# Measured: 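Imaged fluorescence in situ signal for Wolbachia 23S rRNA per DAPI-counted host cell, given as a robust z-score within each plate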
# Reading the numbers: Wolbachia per cell robust z: higher = more Wolbachia per host cell than the plate typical
# Call rule: 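Hit when robust z is 1.5 or more, or -1.5 or less, in at least two of three replicates; excludes dsRNAs with several or no targets, genes not expressed in JW18 and well A1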
# The deposit covers about 24,000 reagents; below is a random part of those with a known target gene and a result. Over the whole deposit, about 1,210 (5%) were called active. 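Inactive calls also include excluded dsRNAs with several or no targets, genes unexpressed in JW18, and well A1, regardless of score.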 A plus sign joins genes that one reagent is predicted to hit.
Gene,DRSC id,"Wolbachia per cell robust z, rep 1","Wolbachia per cell robust z, rep 2","Wolbachia per cell robust z, rep 3",call
CG5835,DRSC15886,-0.719,0.494,0.535,inactive
CG5835,DRSC27415,-0.869,-1.22,0.155,inactive
CG5835,DRSC41318,1.02,-0.0281,0.359,inactive
CG9967,DRSC00742,-2.48,-1.28,-1.47,inactive
CG9967,DRSC25344,-0.379,-0.341,-1.48,inactive
Jon99Fii + Jon99Ciii + Jon99Fi + 1 more,DRSC29104,0.461,1.63,0.41,inactive
CG11109,DRSC11633,-1.95,1.05,-0.504,inactive
Mkp + CG34140,DRSC08585,-5.9,0.557,-0.767,inactive
S6kII,DRSC20645,0.65,0.189,0.37,inactive
CycK,DRSC03714,0.405,0.48,-2.92,inactive
TTLL1A,DRSC20121,-3.11,-1.28,1.57,inactive
CG11257,DRSC06068,0.577,0.553,0.0303,inactive
CG11257,DRSC41517,0.163,-2.79,0.167,inactive
CG5122,DRSC02816,-4.94,-0.339,0.793,inactive
Rtnl1,DRSC00851,0.371,0.00359,1.14,inactive
Rtnl1,DRSC02684,0.408,0.115,-1.4,inactive
Rtnl1,DRSC03122,-1.09,-3.06,0.387,inactive
Rtnl1,DRSC21698,-0.00938,1.01,0.575,inactive
CG13082,DRSC02186,-0.0627,-0.069,-0.023,inactive
CG13082,DRSC26734,-2.23,1.25,-0.527,inactive
CG18281,DRSC11742,-1.6,1.37,0.964,inactive
Lcp65Af,DRSC11213,0.0215,0.0173,-0.0794,inactive
Lcp65Af,DRSC25142,1.31,-0.0324,0.917,inactive
OstDelta,DRSC06980,0.48,-1.2,-0.743,inactive
OstDelta,DRSC27205,-0.927,-1.22,-0.618,inactive
Nup133,DRSC16150,0.944,0.195,-0.712,inactive
PIG-P + Tcs6,DRSC13742,-0.209,-0.0563,0.283,inactive
PIG-P + Tcs6,DRSC14893,-0.414,-0.466,0.823,inactive
CG11122,DRSC19382,-0.671,1.01,-3.78,inactive
CG11122,DRSC27302,0.837,0.377,0.27,inactive
step,DRSC03694,0.108,-0.426,-0.372,inactive
step,DRSC03699,0.534,0.174,-0.137,inactive
CG10384,DRSC03933,-0.874,-3.2,-0.95,inactive
CG10384,DRSC28924,-0.0154,0.812,0.183,inactive
MED21,DRSC37928,0.331,0.558,-0.616,inactive
Fkbp14,DRSC04615,0.359,0.0762,-0.988,inactive
ftz-f1,DRSC25015,-0.0506,-2.05,-1.27,inactive
ftz-f1,DRSC37552,-2.89,1.11,1.44,inactive
axed,DRSC08833,0.145,0.00918,-0.796,inactive
axed,DRSC10982,0.496,-1.31,-0.286,inactive
Gr36c,DRSC02437,0.648,0.767,0.263,inactive
Gr36c,DRSC26305,0.86,-0.00257,-0.684,inactive
CG14572,DRSC11733,-1.15,0.326,-0.0928,inactive
CR14117,DRSC10121,0.862,0.799,-0.223,inactive
CR14117,DRSC25950,-0.822,0.0118,-2.11,inactive
CG13375,DRSC18621,-1.26,0.993,0.794,inactive
Prosbeta5R2,DRSC01617,-0.357,-0.0217,-4.86,inactive
Prosbeta5R2,DRSC29767,-0.783,-7.17,-0.784,inactive
CG1552,DRSC19665,-0.377,-0.449,-0.557,inactive
CG1552,DRSC25533,0.553,1.82,1.21,inactive
Pburs,DRSC02483,-0.789,0.23,-0.284,inactive
sn,DRSC18834,0.0446,0.476,0.0853,inactive
sn,DRSC28327,-0.883,-0.873,-0.0307,inactive
CG30091,DRSC21809,0.475,0.52,0.946,inactive
CG30091,DRSC27799,-1.47,-0.947,0.308,inactive
CG8343,DRSC04905,-5.39,1.27,0.0637,inactive
CG8343,DRSC27692,0.23,-0.455,0.464,inactive
CG8750,DRSC11037,-1.71,-1.05,-0.27,inactive
CG42809,DRSC02532,0.49,-0.00482,0.779,inactive
Oat,DRSC11043,-0.0234,0.981,-0.921,inactive
Tim23,DRSC21240,-1.89,-0.18,-0.212,inactive
Pex3,DRSC10731,-0.553,-0.824,-3.25,inactive
Edem1,DRSC18573,0.3,0.224,-0.0856,inactive
CG14566,DRSC11727,0.771,1.16,0.36,inactive
CG14566,DRSC25467,-0.443,0.397,-0.714,inactive
CG34107,DRSC14554,-0.142,0.189,-4.85,inactive
I-2,DRSC11194,0.989,0.253,2.14,inactive
I-2,DRSC23300,-2.87,0.299,-0.554,inactive
